Source: US20110046044

Experiments:
[1] = target: human erythrocyte spectrin, P02549
[2] = target: native human hemoglobin (Sigma-Aldrich), P69905

B1: unnamed (protein)
chain: NSPYVSNYDDVLKKYKPADAVVDNEKYDWREHNAVSEIKNQNLCGSCWAFGAVGAVESQYAIRKNQHVLISEQELVDCSDKNFGCFGGLASLAFDDMIDLGYLCSESDYPYVGFKPRKCEIKKCKEKYTIKSYVKIPEEKYKEAIQFLGPLTLGLTVNDDFYDYKEGIFSSECTEEPNHEVMIVGYGVEEMFNSESNASEKHYYYIIKNSWGENWGEKGFMRIETDELGLQKTNNMTEAYVPLLD
degradation in erythrocyte ghosts, western blot [1]: the low activity with spectrin
hemoglobin degradation, pH-dependent and time-lapse analyses [2]: the hemoglobinolytic activity of VX-4 was relatively weak
